A mixed list of measured activities; the numbers were collected in NIAID ChemDB.

All rows: tests in culture; organism: HIV-1

Lines come from different laboratories, so protocols vary. ECn: concentration that inhibits the pathogen or its effect by n%. Blank or dashed fields: not listed here.

smiles	strain	read-out	read by	cell line	mutations	result
CC(=O)N[C@@H](Cc1cccc2ccccc12)C(=O)N[C@H](C(=O)N[C@@H](CC(C)C)[C@@H](O)CC(=O)N[C@@H](CC(C)C)C(=O)N[C@@H](Cc1ccccc1)C(N)=O)C(C)C		EC50		MT-2		4.12 µM
COC(=O)[C@@H](C)NP(=O)(OC[C@@H]1OC[C@H](n2cc(C)c(=O)[nH]c2=O)O1)Oc1ccccc1	LAI	EC90	RT activity	PBMC	RT-M184V	38.6 µM
CCCc1c(OCc2ccccc2)c2cc(Cl)ccc2[nH]c1=O	Nevirapine-resistant (RT Y181C)	EC50		MT-4	RT-Y181C	>5 µM
Cc1ccc(C(=O)Nc2ccc(CCC(=O)/C=C/c3ccc(O)c(O)c3)cc2)cc1	BaL	EC50	luciferase	TZM-bl		>50 µM
Cc1ccc(NC(=O)CN2CCN(Cc3nc(-c4ccc(F)cc4)no3)CC2)cc1	92BR030	EC50	RT activity	PBMC		7.5 µM
CCc1c(OC2CCCC2)c2cc(Cl)ccc2[nH]c1=O	Nevirapine-resistant (RT Y181C)	EC50		MT-4	RT-Y181C	1.22 µM
CCCCCCCCCC(=O)Oc1ccc(COP(=O)(OCc2ccc(OC(=O)CCCCCCCCC)cc2)OP(=O)(O)OC[C@@H]2C=C[C@H](n3cc(C)c(=O)[nH]c3=O)O2)cc1	IIIB	EC50	syncytia / microscopy	CEM		0.08 µM
COC(=O)C(C)(C)NP(=O)(OC[C@@H]1OC[C@H](n2cc(C)c(=O)[nH]c2=O)O1)Oc1ccccc1	LAI	EC50	RT activity	PBMC	RT-M184V	0.62 µM
CC(=O)Oc1ccc(/C=C/C(=O)CCc2ccc(NC(=O)c3ccccc3)cc2)cc1OC(C)=O	BaL	EC50	luciferase	TZM-bl		>50 µM
Cc1cc2nc3cn2c(c1[C@H](OC(C)(C)C)C(=O)O)N1CCC(C)(CC1)OCCC[C@H](C)Oc1cc(F)ccc1-c1cccc-3c1		EC50	luciferase	MT-2		0.005 µM
Nc1ncnc2c1ccn2[C@@H]1C=C[C@H](CO)C1	IIIB	EC50	cytopathic effect / trypan blue	MT-4		280 µM
CC(=O)N[C@H]1OC(CO[Si](C)(C)C(C)(C)C)C2(OS(=O)(=O)C=C2N)C1O[Si](C)(C)C(C)(C)C		EC50		CEM + CEM/0		>7.7 µM
C=C(C)[C@@]12OC3(C)O[C@@H]1[C@@H]1[C@H](OC(=O)c4ccccc4)C4(C)O[C@@]5([C@@H]4OC(=O)c4ccccc4)[C@@H](OC(C)=O)[C@@H](C)C[C@H]5[C@@]1(O)[C@H](C)[C@@H]2O3		EC50	syncytia	C8166		2.19 µg/mL
COCc1cc(C)nc2sc(C(=O)Nc3ccc(C(=O)OC)cc3)c(N)c12	RF	EC50	XTT	CEM-SS		>3 µM
CSc1cc(N)nc(S[C@@H](C)c2cc3c(C)coc3cn2)n1	MF DLV-resistant (RT P236L)	EC50	p24	MT-4	RT-P236L	<0.02 µM
N#Cc1cc2c(N)c(C(=O)Nc3cccc(C(F)(F)F)c3)sc2nc1N	RF	EC50	XTT	CEM-SS		>63 µM
CCCc1c(SCC2CCC2)c2cc(Cl)ccc2[nH]c1=O		EC50		MT-4		0.036 µM
Cc1cc2nc3cn2c(c1[C@H](OC(C)(C)C)C(=O)O)N1CCC(C)(CC1)OC/C=C/C[C@@H](C)Oc1cc(F)cc(F)c1-c1cccc-3c1		EC50	luciferase	MT-2		0.002 µM
[N-]=[N+]=N[C@H]1C[C@H](CO)O[C@@H]1n1cc(F)c(N)nc1=O		EC50		CEM + CEM-SS		7 µM
COC(=O)[C@H](C)NP(=O)(OC[C@@H]1C=C[C@H](n2ccc3c(N)ncnc32)C1)Oc1ccccc1	IIIB	EC50	cytopathic effect / trypan blue	MT-4		>10 µM
CC(C)C1=C2[C@H]3CC[C@@H]4[C@@]5(C)CC[C@H](OC(=O)[C@H]6C[C@@H](C(=O)O)C6(C)C)C(C)(C)[C@@H]5CC[C@@]4(C)[C@]3(C)CC[C@@]2(CCNC(=O)[C@H]2CCCNC2)CC1=O	92HT599	EC50	p24 / ELISA	MT-2		<1 µM
O=C(O)/C=C/c1ccc(O)c(O)c1	N1T	EC50	p24	CEM		~0.5 µg/mL
Cc1nnc(C(=O)NC(C)(C)c2nc(C(=O)NCc3ccc(F)cc3)c(O)c(=O)n2C)o1	LAI	EC90	p24 / ELISA	HEK293T		0.002 µM
Nc1nc(=O)n([C@@H]2CC[C@H](CO)O2)cc1F		EC50		CEM + CEM-SS		0.032 µM
CC(C)[C@H](CC[C@@H](C)[C@H]1C[C@H](OS(=O)(=O)O)[C@H]2[C@@H]3[C@H](O)[C@H](O)[C@H]4C[C@@H](O)CC[C@]4(C)[C@H]3CC[C@@]21C)OC1OC[C@@H](O)[C@H](O)[C@@H]1O	RF	EC50	cytopathic effect / XTT	CEM + CEM-SS		>100 µM
CC(C)C1=C2[C@H]3CC[C@@H]4[C@@]5(C)CC[C@H](OC(=O)[C@H]6C[C@@H](C(=O)O)C6(C)C)C(C)(C)[C@@H]5CC[C@@]4(C)[C@]3(C)CC[C@@]2(CC(=O)NCC(C)(C)NC(=O)c2ccc(O[C@H]3CCOC3)cc2)CC1=O	92HT599	EC50	p24 / ELISA	MT-2		<1 µM
Nc1nc(=O)n([C@@H]2CO[C@@H](CO)S2)cc1F		EC50		MT-4		>100 µg/mL
CCCc1c(OC2CCCC2)c2cc(C)ccc2[nH]c1=O		EC50		MT-4		0.74 µM
COC(=O)[C@H](C)NP(=O)(OC[C@@H]1OC[C@H](n2cc(C)c(=O)[nH]c2=O)O1)Oc1ccc(Cl)cc1Cl	LAI	EC90	RT activity	PBMC	RT-M184V	2.8 µM
CC(C)C1=C2[C@H]3CC[C@@H]4[C@@]5(C)CC[C@H](OC(=O)[C@H]6C[C@@H](C(=O)O)C6(C)C)C(C)(C)[C@@H]5CC[C@@]4(C)[C@]3(C)CC[C@@]2(CCNCc2ncc[nH]2)CC1=O	92HT599	EC50	p24 / ELISA	MT-2		<1 µM
CN(c1ncc(Cc2cnc(N(C)C3CCN(Cc4ccccc4)CC3)nc2)cn1)C1CCN(Cc2ccccc2)CC1	NL4-3	EC50	luminescence	H9		6.63 µM
CC(C)[C@H](CC[C@@H](C)[C@H]1C[C@H](OS(=O)(=O)O)[C@H]2[C@@H]3C[C@H](O)[C@H]4C[C@@H](O)CC[C@]4(C)[C@H]3CC[C@@]21C)OC1OC[C@@H](O)[C@H](O)[C@@H]1O	RF	EC50	cytopathic effect / XTT	CEM + CEM-SS		>100 µM
Cc1cc(C)cc(S(=O)(=O)c2c(C(=O)/C=C/C(N)=O)[nH]c3ccc(Cl)cc23)c1	IIIB	EC50	p24	C8166	RT-Y181C	0.6 µM
CCCCCCCCCCCCCCCCCCOCCOP(=O)(O)OC[C@@H]1OC[C@H](n2cc(C)c(=O)[nH]c2=O)O1	LAI	EC90	RT activity	PBMC	RT-M184V	3.6 µM
CCCCCCC(=O)Oc1ccc(COP(=O)(OCc2ccc(OC(=O)CCCCCC)cc2)OP(=O)(O)OC[C@@H]2C=C[C@H](n3cc(C)c(=O)[nH]c3=O)O2)cc1	IIIB	EC50	syncytia / microscopy	CEM		0.47 µM
COc1ccc(NC(=O)c2sc3nc(C)cc(C)c3c2N)cc1	RF	EC50	XTT	CEM-SS		>63 µM
CC(=O)Oc1ccc(CCC(=O)CCc2ccc(NC(=O)c3ccc([N+](=O)[O-])cc3)cc2)cc1OC(C)=O	BaL	EC50	luciferase	TZM-bl		16.83 µM
CC(=O)O[C@@H]1C[C@H]2[C@@H]3C[C@H](OP(=O)(O)OC4O[C@H](CO)[C@@H](O)[C@H](O)[C@H]4O)[C@H]4C[C@@H](OS(=O)(=O)O)CC[C@]4(C)[C@H]3CC[C@]2(C)[C@H]1[C@H](C)CCCC(C)C	RF	EC50	cytopathic effect / XTT	CEM + CEM-SS		>100 µM
CCCCCCCCCCCCCCCC(=O)Oc1ccc(COP(=O)(OCc2ccc(OC(=O)CCCCCCCCCCCCCCC)cc2)OP(=O)(O)OC[C@@H]2C=C[C@H](n3cc(C)c(=O)[nH]c3=O)O2)cc1	IIIB	EC50	syncytia / microscopy	CEM		2 µM
O=C1O[C@](C#CC2CC2)(C(F)(F)F)c2cc(Cl)ccc2N1CN1CCN(c2ccc(F)cc2)CC1	IIIB	EC50	MTT	CEM		0.0036 µM
CC(C)CC[C@@H](O)[C@@H](C)[C@H]1CCC2C3C[C@H](OS(=O)(=O)O)C4C[C@@H](OS(=O)(=O)O)CC[C@]4(C)C3=CC[C@@]21C	RF	EC50	RT activity	CEM + CEM-SS		80 µM
Nc1nc(=O)n([C@H]2CO[C@@H](CO)S2)cc1F		EC50		MT-4		2.5 µg/mL
O=C1O[C@](C#CC2CC2)(C(F)(F)F)c2cc(Cl)ccc2N1CN1CCN(c2cccc(Cl)c2)CC1	IIIB	EC50	MTT	CEM		0.0024 µM
Cc1cn([C@H]2CO[C@@H](COP(=O)(N[C@@H](C)C(=O)OCc3ccccc3)Oc3cccc4ccccc34)O2)c(=O)[nH]c1=O	LAI	EC90	RT activity	PBMC	RT-M184V	11.6 µM
O=c1ccn([C@@H]2CO[C@@H](CO)S2)c(=O)[nH]1		EC50		MT-4		>100 µg/mL
COC(=O)[C@H](C)NP(=O)(OC[C@H]1C=C[C@@H](n2ccc3c(N)ncnc32)C1)Oc1ccccc1	IIIB	EC50	cytopathic effect / trypan blue	MT-4		0.091 µM
COC(=O)C(C)(C)NP(=O)(OC[C@@H]1OC[C@H](n2cc(C)c(=O)[nH]c2=O)O1)Oc1cccc2ccccc12	LAI	EC50	RT activity	PBMC	RT-M184V	0.38 µM
C=C(C)[C@@]12OC3(C)O[C@@H]1[C@@H]1[C@H](OC(=O)c4ccccc4)C4(C)O[C@@]5([C@@H]4OC(=O)c4ccccc4)[C@@H](O)[C@@H](C)C[C@H]5[C@@]1(O)[C@H](C)[C@@H]2O3		EC50	syncytia	C8166		63.8 µg/mL
O=C1O[C@](C#CC2CC2)(C(F)(F)F)c2cc(Cl)ccc2N1CN1CCN(c2ccccc2)CC1	IIIB	EC50	MTT	CEM		0.003 µM
CC(C)C1=C2[C@H]3CC[C@@H]4[C@@]5(C)CC[C@H](OC(=O)[C@H]6C[C@@H](C(=O)O)C6(C)C)C(C)(C)[C@@H]5CC[C@@]4(C)[C@]3(C)CC[C@@]2([C@@H](O)CNCCN2CCS(=O)(=O)CC2)CC1=O	92HT599	EC50	p24 / ELISA	MT-2		<1 µM
COc1ccc(C(=O)Nc2ccc(CCC(=O)/C=C/c3ccc(O)c(O)c3)cc2)cc1	BaL	EC50	luciferase	TZM-bl		16.56 µM
CC(=O)N[C@@H](Cc1ccccc1)C(=O)N[C@H](C(=O)N[C@@H](CC(C)C)[C@@H](O)CC(=O)N[C@@H](CC(C)C)C(=O)N[C@@H](Cc1ccccc1)C(N)=O)C(C)C		EC50		CEM		3.37 µM
CC(C)C1=C2[C@H]3CC[C@@H]4[C@@]5(C)CC[C@H](OC(=O)[C@H]6C[C@@H](C(=O)O)C6(C)C)C(C)(C)[C@@H]5CC[C@@]4(C)[C@]3(C)CC[C@@]2(CC(=O)NC2(CNC(=O)c3ccc(Cl)cc3)CC2)CC1=O	92HT599	EC50	p24 / ELISA	MT-2		<1 µM
CCCc1c(OC2CCCC2)c2cc(OC(F)(F)F)ccc2[nH]c1=O	Nevirapine-resistant (RT Y181C)	EC50		MT-4	RT-Y181C	0.936 µM
C=C(C)C(=O)NC(=O)NC1OC(CO[Si](C)(C)C(C)(C)C)C2(OS(=O)(=O)C=C2N)C1O[Si](C)(C)C(C)(C)C		EC50		CEM + CEM/0		>7 µM
O=C(O)c1cn(C2CC2)c2cc(N3CCN(CN4C(=O)O[C@](C#CC5CC5)(C(F)(F)F)c5cc(Cl)ccc54)CC3)c(F)cc2c1=O	IIIB	EC50	MTT	CEM		0.00447 µM
CC(C)C1=C2[C@H]3CC[C@@H]4[C@@]5(C)CC[C@H](OC(=O)[C@H]6C[C@@H](C(=O)O)C6(C)C)C(C)(C)[C@@H]5CC[C@@]4(C)[C@]3(C)CC[C@@]2(CCNCC(C)(C)NC(=O)c2ncc[nH]2)CC1=O	92HT599	EC50	p24 / ELISA	MT-2		<1 µM
COC(=O)[C@H](C)NP(=O)(OC[C@@H]1OC[C@H](n2cc(C)c(=O)[nH]c2=O)O1)Oc1ccccc1Cl	LAI	EC90	RT activity	PBMC	RT-M184V	2.6 µM
O=C(NCc1ccc(O)c(O)c1)c1ccc2ccc(C(=O)O)c(O)c2n1	NL4-3	EC50	p24	CEM		0.3 µM
CC(C)Cc1c(OCC2CCC2)c2cnccc2[nH]c1=O	Nevirapine-resistant (RT Y181C)	EC50		MT-4	RT-Y181C	0.33 µM
CC(=O)Oc1ccc(CCC(=O)CCc2ccc(NC(=O)Cc3cccs3)cc2)cc1OC(C)=O	BaL	EC50	luciferase	TZM-bl		15.99 µM
COC(=O)CNP(=O)(OC[C@@H]1OC[C@H](n2cc(C)c(=O)[nH]c2=O)O1)Oc1ccccc1	LAI	EC50	RT activity	PBMC	RT-M184V	2.2 µM
CCn1cc(C(=O)O)c(=O)c2cc(F)c(N3CCN(CN4C(=O)O[C@](C#CC5CC5)(C(F)(F)F)c5cc(Cl)ccc54)CC3)cc21	IIIB	EC50	MTT	CEM		0.00379 µM

The last 7 rows once more:

smiles	strain	read-out	read by	cell line	mutations	result
CC(C)C1=C2[C@H]3CC[C@@H]4[C@@]5(C)CC[C@H](OC(=O)[C@H]6C[C@@H](C(=O)O)C6(C)C)C(C)(C)[C@@H]5CC[C@@]4(C)[C@]3(C)CC[C@@]2(CCNCC(C)(C)NC(=O)c2ncc[nH]2)CC1=O	92HT599	EC50	p24 / ELISA	MT-2		<1 µM
COC(=O)[C@H](C)NP(=O)(OC[C@@H]1OC[C@H](n2cc(C)c(=O)[nH]c2=O)O1)Oc1ccccc1Cl	LAI	EC90	RT activity	PBMC	RT-M184V	2.6 µM
O=C(NCc1ccc(O)c(O)c1)c1ccc2ccc(C(=O)O)c(O)c2n1	NL4-3	EC50	p24	CEM		0.3 µM
CC(C)Cc1c(OCC2CCC2)c2cnccc2[nH]c1=O	Nevirapine-resistant (RT Y181C)	EC50		MT-4	RT-Y181C	0.33 µM
CC(=O)Oc1ccc(CCC(=O)CCc2ccc(NC(=O)Cc3cccs3)cc2)cc1OC(C)=O	BaL	EC50	luciferase	TZM-bl		15.99 µM
COC(=O)CNP(=O)(OC[C@@H]1OC[C@H](n2cc(C)c(=O)[nH]c2=O)O1)Oc1ccccc1	LAI	EC50	RT activity	PBMC	RT-M184V	2.2 µM
CCn1cc(C(=O)O)c(=O)c2cc(F)c(N3CCN(CN4C(=O)O[C@](C#CC5CC5)(C(F)(F)F)c5cc(Cl)ccc54)CC3)cc21	IIIB	EC50	MTT	CEM		0.00379 µM